PubChem BioAssay AID1224833, University of Georgia – 2016
Purpose: 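Human genes whose knock-down alters rotavirus replication in monkey cells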 (primary screen). Cell system: monkey MA104 kidney cells. Knock-down reagent: siRNA pool against human genes, 50 nM. Timing: 48 h knock-down before infection; read 24 h after infection. Treatment: infection with rotavirus strain RV3 two days after transfection; infectious dose for this stage not given. Measured: 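Rotavirus antigen per well by fluorescent immunoassay, normalised to non-targeting control wells on each plate and given as a standard z-score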. Scale: z-score vs non-targeting control: higher = more rotavirus replication than with non-targeting control. Call rule: In these data the active calls have z-score vs non-targeting control at about -1 or lower, or at about 1 or higher. Calls: active = z-score beyond 1 either way; inactive = z-score within 1 of zero.
This is a random part of about 12,000 reagents tested. About 5,600 of them (46%) were called active. 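Active calls cover z-scores past 1 in both directions, so they include lowered as well as raised rotavirus replication.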 Entries without a mark were called inactive.

For STAC, what was measured?
z-score vs non-targeting control: -2.84 (active)

Which result is listed for ANO6?
z-score vs non-targeting control: -1.99 (active)

For ZNF460, what was measured?
z-score vs non-targeting control: 0.133

How did the screen score HOXA13?
z-score vs non-targeting control: -1.21 (active)

Which result is listed for OPLAH?
z-score vs non-targeting control: -1.31 (active)

With TMEM126A, what does the deposit list?
z-score vs non-targeting control: -0.817

How did the screen score RHO?
z-score vs non-targeting control: 1.07 (active)

What is on record for SLC38A3?
z-score vs non-targeting control: -1.08 (active)

For USP32, what was measured?
z-score vs non-targeting control: 0.959

What is on record for COL16A1?
z-score vs non-targeting control: -3.17 (active)

With RAD9B, what does the deposit list?
z-score vs non-targeting control: -0.691

What did the screen give for ITGA2B?
z-score vs non-targeting control: 1.54 (active)

What did the screen give for JDP2?
z-score vs non-targeting control: 3.3 (active)

What is on record for OTOR?
z-score vs non-targeting control: 1.25 (active)

With SRA1, what does the deposit list?
z-score vs non-targeting control: 0.377

What did the screen give for NR5A1?
z-score vs non-targeting control: -1.14 (active)

For FSCB, how do the results read?
z-score vs non-targeting control: -0.512

For PRELID3A, what was measured?
z-score vs non-targeting control: -0.423

For ZNF586, what was measured?
z-score vs non-targeting control: -0.609

Which result is listed for LOC401052 (retired record)?
z-score vs non-targeting control: -0.537

With PELO, what does the deposit list?
z-score vs non-targeting control: 0.296

What is on record for RARS2?
z-score vs non-targeting control: -0.559

What did the screen give for U2AF1?
z-score vs non-targeting control: -1.2 (active)

For FERMT1, what does the deposit list?
z-score vs non-targeting control: 0.755

What is on record for FEV?
z-score vs non-targeting control: 0.443

Single entries from the list.
TMEM126A, z-score vs non-targeting control → -0.817
SLC38A3, z-score vs non-targeting control = -1.08 (active)

Additional records follow:
How did the screen score PUF60?
z-score vs non-targeting control: -0.827

How did the screen score TEX55?
z-score vs non-targeting control: 0.932

With OR7C1, what does the deposit list?
z-score vs non-targeting control: -0.299

For XKR3, what was measured?
z-score vs non-targeting control: -0.565

With OR8U8, what was measured?
z-score vs non-targeting control: 1.53 (active)

For ARHGEF16, what does the deposit list?
z-score vs non-targeting control: -1.05 (active)

Which result is listed for ADORA2B?
z-score vs non-targeting control: 3.52 (active)

What did the screen give for ZC3H13?
z-score vs non-targeting control: -1.14 (active)

For SLC22A14, what was measured?
z-score vs non-targeting control: 2.47 (active)

What did the screen give for NRN1L?
z-score vs non-targeting control: -0.625

How did the screen score DSTN?
z-score vs non-targeting control: 0.741

With LYAR, what does the deposit list?
z-score vs non-targeting control: 1.35 (active)

What did the screen give for FLOT2?
z-score vs non-targeting control: -2.2 (active)

For IRX4, how do the results read?
z-score vs non-targeting control: -0.881

For ZBED2, what does the deposit list?
z-score vs non-targeting control: 1.89 (active)

What did the screen give for FAM174C?
z-score vs non-targeting control: 0.0785

Which result is listed for PYDC1?
z-score vs non-targeting control: -1.74 (active)

For NIPAL3, how do the results read?
z-score vs non-targeting control: 0.819

With ZNF565, how do the results read?
z-score vs non-targeting control: -0.839

How did the screen score CD44?
z-score vs non-targeting control: 0.414

What is on record for NIPSNAP3A?
z-score vs non-targeting control: -0.996

Which result is listed for VSIR?
z-score vs non-targeting control: 1.33 (active)
